# What was measured:
# [1] = tested on: T. gondii tachyzoites (RH strain); test: Anti-Toxoplasma activity (infection index in Vero cells, 72 h); format: cell-based; conditions: IC50 Vero / EC50 T. gondii
# Description: Tachyzoites of the T. gondii RH strain were cultivated in Vero cells according to a published method. Complete RPMI 1640 medium (Invitrogen, USA) with 10% fetal bovine serum (FBS, Invitrogen, USA) was used to culture Vero cells in 96-well plates (5 × 10^3 cells/well in 200 μL of medium), which were incubated at 37 °C and under 5% CO2 for 24 h. This was followed by washing with phosphate-buffered saline (PBS) to remove the medium. Then, RPMI 1640 medium with 2% FBS containing T. gondii tachyzoites (RH strain) at a ratio of 5 (parasite): 1 (Vero cells) was added. After incubation at 37 °C and under 5% CO2 for 5 h, the cells were washed with PBS and overlaid with medium containing one of the tested compounds or atovaquone (ATO) at 50, 25, 12.5, 6.25, 3.13, 1.65, 0.75, or 0.37 μg mL^–1.
# After incubation at 37 °C and under 5% CO2 for 72 h, the cells were stained with 1% toluidine before being examined under an inverted photomicroscope (MCD-400, Leica, Japan) to determine the T. gondii infection index (number of infected cells from 200 tested cells). The experiment was performed in triplicate.
# [2] = tested on: L. major amastigotes; test: Activity against L. major amastigotes in peritoneal macrophages (percentage of infected macrophages, Giemsa, 72 h); format: cell-based, Leishmania major; conditions: IC50 macrophages / EC50 L. major amastigotes
# Description: L. major promastigotes were isolated and maintained according to a described method. BALB/c mice were injected at the hind footpads with 1 × 10^6 L. major metacyclic promastigotes. L. major amastigotes were collected from the infected mice. After 8 weeks had elapsed since inoculation, Schneider’s medium (Invitrogen, USA) containing antibiotics and 10% FBS was used to transform isolated amastigotes into promastigotes by incubation at 26 °C. Amastigote-derived promastigotes with less than five in vitro passages were only used for infection.
# Female BALB/c mouse peritoneal macrophages (6–8 weeks old) were used to culture L. major amastigotes to assess the activity of the compounds against amastigotes. Briefly, 1 mL of 3% Brewer’s thioglycollate medium/mouse was injected into the peritoneal cavity. After 4 days, the abdominal skin was removed to expose the peritoneal wall. Then, 3 mL of RPMI 1640 medium was injected before cells were collected by aspiration, whereupon 96-well plates containing RPMI 1640 medium with 10% FBS were used to culture 5 × 10^4 cells/well, which were incubated at 37 °C under 5% CO2 for 4 h. After washing with PBS, RPMI 1640 medium containing 5 × 10^5 promastigotes were added to each well. Next, the cells were incubated at 37 °C under humidified 5% CO2 for 24 h to enhance infection and differentiation of amastigotes. Washing with PBS several times removed free promastigotes. Fresh complete RPMI 1640 medium containing one of the tested compounds or AmB at the desired final concentration (50, 25, 12.5, 6.25, 3.13, 1.65, 0.75, or 0.37 μg mL^–1) was added and incubated at 37 °C under a humidified 5% CO2 atmosphere for 72 h. DMSO (1%), only in complete RPMI media, was used as the negative control. The percentage of infected macrophages was assessed microscopically after the medium was removed, followed by washing with PBS, fixation with methanol, and staining with Giemsa. The reading was performed in triplicate. Handling of the laboratory animals followed the instructions and rules of the Committee of Research Ethics, Deanship of Scientific Research, Qassim University, permission number 20–03–20.
SMILES,SI Vero/T. gondii [1],SI L. major macro/ama [2]
"CCOC(=O)C1=C(C)NC2=C(C(=O)CC(C)(C)C2)C1c1ccc(OCc2ccccc2)cc1 (racemic) [Compound 4, (±)-ethyl 4-(4-(benzyloxy)phenyl)-2,7,7-trimethyl-5-oxo-1,4,5,6,7,8-hexahydroquinoline-3-carboxylate]",5.57,1.08
"CCOC(=O)C1=C(C)NC2=C(C(=O)CC(C)(C)C2)C1c1ccccc1[N+](=O)[O-] (racemic) [Compound 9, (±)-ethyl 2,7,7-trimethyl-4-(2-nitrophenyl)-5-oxo-1,4,5,6,7,8-hexahydroquinoline-3-carboxylate]",0.37,
CCOC(=O)C1=C(C)NC2=C(C(=O)CC(C)(C)C2)C1c1ccc(C)cc1 (stereo not shown) [Compound 2],<0.89,<0.81
CCOC(=O)C1=C(C)NC2=C(C(=O)CC(C)(C)C2)C1c1ccc(OC)cc1 (stereo not shown) [Compound 3],,<0.69
CCOC(=O)C1=C(C)NC2=C(C(=O)CC(C)(C)C2)C1c1ccc(N(C)C)cc1 (stereo not shown) [Compound 5],1.67,0.92
CCOC(=O)C1=C(C)NC2=C(C(=O)CC(C)(C)C2)C1c1ccc(Br)cc1 (stereo not shown) [Compound 6],0.74,0.47
CCOC(=O)C1=C(C)NC2=C(C(=O)CC(C)(C)C2)C1c1cccc([N+](=O)[O-])c1 (stereo not shown) [Compound 10],0.65,0.93
CCOC(=O)C1=C(C)NC2=C(C(=O)CC(C)(C)C2)C1c1ccc(O)c(OC)c1 (stereo not shown) [Compound 11],1.70,0.89
CCOC(=O)C1=C(C)NC2=C(C(=O)CC(C)(C)C2)C1c1ccc2c(c1)OCO2 (stereo not shown) [Compound 12],0.49,0.70
CCOC(=O)C1=C(C)NC2=C(C(=O)CC(C)(C)C2)C1c1c(OC)cc(OC)cc1OC (stereo not shown) [Compound 14],<0.47,0.8
CCOC(=O)C1=C(C)NC2=C(C(=O)CC(C)(C)C2)C1c1cccs1 (stereo not shown) [Compound 16],1.55,0.94
CCOC(=O)C1=C(C)NC(C)=C(C(=O)OCC)C1c1ccccc1 [Compound 17],1.21,
CCOC(=O)C1=C(C)NC(C)=C(C(=O)OCC)C1c1ccc(OC)cc1 [Compound 18],<0.78,
CCOC(=O)C1=C(C)NC(C)=C(C(=O)OCC)C1c1ccc(OCc2ccccc2)cc1 [Compound 19],<0.70,0.91
CCOC(=O)C1=C(C)NC(C)=C(C(=O)OCC)C1c1ccc(Br)cc1 [Compound 20],,0.88
CCOC(=O)C1=C(C)NC(C)=C(C(=O)OCC)C1c1cccc([N+](=O)[O-])c1 [Compound 22],1.72,0.84
CCOC(=O)C1=C(C)NC(C)=C(C(=O)OCC)C1c1ccc(O)c(OC)c1 [Compound 23],0.74,0.73
CCOC(=O)C1=C(C)NC(C)=C(C(=O)OCC)C1c1cc(OC)c(OC)c(OC)c1 [Compound 24],<0.29,0.69
